Values from PubChem BioAssay AID504761 (Drosophila RNAi Screening Center, 2011)
Test: 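Insect host genes that dengue virus relies on to spread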 (primary screen). Cells: D.Mel-2 cells from Drosophila. Reagent: long dsRNA against Drosophila genes. Challenge: infection with dengue virus type 2; dose and infection time not stated. Detection: 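Per well on two replicate plates, imaging gave the percent of cells positive for viral envelope protein, ranked by infection, and a nuclear count of cells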. Direction: infection score: higher = more virus-infected cells; cell count: higher = more cells in the well. Call rule: 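Low infection ranks in the two replicates (chance level up to 0.065) followed by a retest with a 1.5-fold or larger significant decrease, p below 0.05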. Calls: active = confirmed: knock-down lowers infection; inactive = not picked or not confirmed.
The deposit covers about 22,000 reagents; shown is an unselected part of those that have a named target and a result. Over the whole deposit, 116 (0.52%) were called active. 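Calls depend on retest data that are not deposited; infection was ranked per plate without normalising between plates; the unit of the infection score is not given.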 Raw values vary from plate to plate and are shown uncorrected. Names joined by + are all predicted targets of the reagent. Not all columns of the deposit are shown. Reagent sequences are not shown. The record does not give: the amount of reagent, the time to read-out.

Kat60 (GeneID 53566) [DRSC12378] scored infection score, replicate 1 = 3.85; cell count, replicate 1 = 6804; inactive. Against prd (GeneID 34629) [DRSC03597], the values are infection score, replicate 1 = 9.66; cell count, replicate 1 = 6348; inactive. Silencing of CG9813 (GeneID 41644) [DRSC16569] resulted in: infection score, replicate 1 = 9.47; cell count, replicate 1 = 5842; inactive. With knock-down of CG9813 (GeneID 41644) [DRSC26207], the record shows infection score, replicate 1 = 11.1; cell count, replicate 1 = 5902; inactive. Against CG3592 (GeneID 31282) [DRSC18315] the deposit lists infection score, replicate 1 = 1.53; cell count, replicate 1 = 653; inactive. CG15357 (GeneID 50192) [DRSC00387] showed infection score, replicate 1 = 22.7; cell count, replicate 1 = 4737; inactive.

For CG7131 (GeneID 42197) [DRSC16203], the entry reads infection score, replicate 1 = 3.3; cell count, replicate 1 = 6038; inactive. Depletion of CG7131 (GeneID 42197) [DRSC29880] gave: infection score, replicate 1 = 22.5; cell count, replicate 1 = 5520; inactive. Against Ir7c (GeneID 31692) [DRSC18007], the values are infection score, replicate 1 = 4.08; cell count, replicate 1 = 5778; inactive. CG6660 (GeneID 42708) [DRSC16087] gave infection score, replicate 1 = 6.41; cell count, replicate 1 = 6707; inactive. Silencing of Or85e (retired record) (GeneID 3772269) [DRSC16768] resulted in: infection score, replicate 1 = 11.5; cell count, replicate 1 = 6620; inactive. Against CG5665 (GeneID 40243) [DRSC11783], the values are infection score, replicate 1 = 21.2; cell count, replicate 1 = 4798; inactive.

For Rab11 (GeneID 42501) [DRSC16809] the deposit lists infection score, replicate 1 = 17.3; cell count, replicate 1 = 3820; inactive. Silencing of Rab11 (GeneID 42501) [DRSC23620] resulted in: infection score, replicate 1 = 2.98; cell count, replicate 1 = 5713; inactive.

As entered above.
Value of Or85e (retired record) (GeneID 3772269) [DRSC16768] under “outcome”: inactive
Value of prd (GeneID 34629) [DRSC03597] in “outcome”: inactive

The listing continues.
For CG6294 + CG6299 + CG15642 [DRSC19981], the entry reads cell count, replicate 1 = 422; inactive. insv (GeneID 33441) [DRSC00579] gave infection score, replicate 1 = 7.39; cell count, replicate 1 = 6748; inactive. After knock-down of insv (GeneID 33441) [DRSC28219] the results were infection score, replicate 1 = 5.93; cell count, replicate 1 = 2647; inactive. For Surf4 (GeneID 41864) [DRSC16875], the entry reads infection score, replicate 1 = 1.99; cell count, replicate 1 = 6318; inactive. Silencing of beat-IV (GeneID 42778) [DRSC14195] resulted in: infection score, replicate 1 = 10; cell count, replicate 1 = 6536; inactive. Knock-down of beat-IV (GeneID 42778) [DRSC14673] resulted in: infection score, replicate 1 = 1.96; cell count, replicate 1 = 510; inactive.

CG31525 (GeneID 318782) [DRSC12004] showed infection score, replicate 1 = 0.82; cell count, replicate 1 = 6363; inactive.
